Sequences of proteins named here, by UniProt entry; tags and fusion partners are left off. A change or cut given only in a name is not applied to a line headed by its entry.
UniProt Q2G0P5: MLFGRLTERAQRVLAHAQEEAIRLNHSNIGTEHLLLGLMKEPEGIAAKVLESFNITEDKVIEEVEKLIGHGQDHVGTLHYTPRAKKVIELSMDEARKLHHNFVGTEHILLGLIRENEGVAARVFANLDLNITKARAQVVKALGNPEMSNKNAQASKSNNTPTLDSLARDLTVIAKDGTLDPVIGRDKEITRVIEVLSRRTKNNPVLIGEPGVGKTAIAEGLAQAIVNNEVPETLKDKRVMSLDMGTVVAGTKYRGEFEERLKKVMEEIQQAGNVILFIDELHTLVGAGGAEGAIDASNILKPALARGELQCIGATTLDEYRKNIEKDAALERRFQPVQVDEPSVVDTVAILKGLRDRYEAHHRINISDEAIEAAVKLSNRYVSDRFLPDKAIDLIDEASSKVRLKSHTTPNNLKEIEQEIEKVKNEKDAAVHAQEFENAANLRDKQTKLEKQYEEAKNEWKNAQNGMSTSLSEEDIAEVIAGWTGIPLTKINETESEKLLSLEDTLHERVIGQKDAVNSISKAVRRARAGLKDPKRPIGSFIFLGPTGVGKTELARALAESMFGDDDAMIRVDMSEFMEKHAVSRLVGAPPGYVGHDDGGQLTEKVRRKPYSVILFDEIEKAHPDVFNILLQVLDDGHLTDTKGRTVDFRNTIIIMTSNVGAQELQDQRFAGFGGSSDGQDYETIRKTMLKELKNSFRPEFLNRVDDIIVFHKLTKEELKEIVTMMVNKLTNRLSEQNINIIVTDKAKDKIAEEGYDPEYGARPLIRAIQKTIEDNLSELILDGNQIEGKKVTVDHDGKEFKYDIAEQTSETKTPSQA

According to paper PMC12583610, “Allosteric control of the bacterial ClpC/ClpP protease and its hijacking by antibacterial peptides” (The EMBO Journal, 2025):

Target: ClpC/ClpP (S. aureus ClpC-WT with ClpP) (Staphylococcus aureus, UniProt Q2G0P5)
Experiment: FITC-casein degradation, fluorescence, titration
Details: read-out: half-maximal stimulation, allosteric activator, NTD pArg1/pArg2 sites, ATP regenerating system, pH 7.5, 10 mM MgCl2

N=C(NCCC[C@H](N)C(=O)O)NP(=O)(O)O
EC50: 220 µM
